Assay [1] addresses His-DDX3_1–418 (human) (UniProt O00571). Put plainly: MST.
The target of assay [2] is YopM from Y. enterocolitica WA314, full length, purified (Yersinia enterocolitica serotype O:8 strain WA314). The experiment in a line: SEC.
Assay [3] concerns the target His-DDX3_1–418 (human) (UniProt O00571). Put plainly: SEC.
Assay [4] has as its target YopM_34–481 from Y. enterocolitica WA314, purified (Yersinia enterocolitica serotype O:8 strain WA314). Put plainly: SAXS.
The target is the same in assay [5]. The experiment in a line: crystal structure.

pKd: −log10 of the molar value.

“YopM from Y. enterocolitica WA314, full length, purified (natural protein)” had a pKd in the assay with His-DDX3_1–418 (human) [1] of 4.92. For the same substance, the stoichiometry N in assay [2] came out at 2. In addition, in the assay with His-DDX3_1–418 (human) [3], the stoichiometry N (YopM per DDX3 1–418) came out at 2.

On to “YopM_34–481 from Y. enterocolitica WA314, purified (domain or fragment)”, for which the pKd with His-DDX3_1–418 (human) [1] is 4.74. The stoichiometry N in assay [4] and in assay [5] was 2 in each case. This substance also registered a stoichiometry N (YopM 34–481 per DDX3 1–418) with His-DDX3_1–418 (human) [3] of 2.

The record behind these values is article PMC4907486, “Immunosuppressive Yersinia Effector YopM Binds DEAD Box Helicase DDX3 to Control Ribosomal S6 Kinase in the Nucleus of Host Cells” (2016).
